Data from patent publication US20250002907A1.

Biological target: RBD
Experiment: BLI

Row | Substance | Kd [nM]
1 | CR3022 | 18.7
2 | CV30 | 8.8
